According to patent US20250002564A1, “MODIFIED MULTABODY CONSTRUCTS, COMPOSITIONS, AND METHODS” (HOSPITAL FOR SICK CHILDREN, published 2025):

B1: mAb 298 (antibody, V domains shown)
VH: QVQLVQSGAEVKKPGASVKVSCKASGGTFSTYGISWVRQAPGQGLEWMGWISPNSGGTDLAQKFQGRVTMTRDTSTSTVYMELSSLRSEDTAVYYCASDPRDDIAGGYWGQGTLVTVSS
VL: not shown
notes: also called IgG 298; Antibody 298
B2: mAb 80 (antibody, V domains shown)
VH: QVQLVQSGAEVKKPGSSVKVSCKASGGTFNRYAFSWVRQAPGQGLEWMGGIIPIFGTANYAQKFQGRVTITADESTSTAYMELSSLRSEDTAVYYCARSTRELPEVVDWYFDLWGRGTLVTVSS
VL: DIVMTQSPDSLAVSLGERATINCKSSQSVLYSSNNKNYLAWYQQKPGQPPKLLIYWASTRESGVPDRFSGSGSGTDFTLTISSLQAEDVAVYYCQQYYSAPLTFGGGTKVEIKR
notes: also called IgG 80; Antibody 80

What was measured:
[1] = target: Spike of authentic SARS-CoV-2/SB2-P4-PB virus (SARS-CoV-2, UniProt P0DTC2 14-1273); assay: cell-based or functional assay
[2] = target: T1, SARS-CoV-2 Spike on wild-type pseudotyped virus (PsV) (SARS-CoV-2, UniProt P0DTC2 14-1273); assay: cell-based or functional assay
[3] = target: T1, SARS-CoV-2 Spike on wild-type …; assay: cell-based or functional assay; remark: listed apart in the source
[4] = target: T2, SARS-CoV-2 receptor binding domain (RBD), wild type, His-tagged (SARS-CoV-2, UniProt P0DTC2 319-541); assay: method and format not given
T2 construct: domain: RBD; also called His-tagged RBD; BEI NR52309

[5] = target: T2, SARS-CoV-2 receptor binding domain …; assay: method and format not given; remark: listed apart in the source

Binder | IC50 SARS-CoV2/SB2-P4-PB (IgG) [1] [µg/mL] | IC50 SARS-CoV2 PsV (IgG) [2] [µg/mL] | Median IC50 [3] | Kd [4] [nM] | Kd [5] [nM]
B1 | 2.2 | 2.8 | 0.28 µg/mL and 1.9 nM | 24 | –
B2 | 12.7 | 0.1 | 0.1 µg/mL and 0.67 nM | – | 142

Where “and” joins values, the source holds several entries; their conditions need not be identical. Identical values can stand only once. Like-named read-outs stand apart in the source and are kept apart here.
